Pooled drug test results. Numbers come from NIAID ChemDB, via PubChem.

Common to all: tests in culture; organism: Epstein-Barr virus; measure: EC50

ECn is the concentration giving n% inhibition of infection, replication or growth. An empty or dashed field is not shown. Neighbouring rows are from separate reports.

SMILES | strain | cells | read by | value
O=C(Nc1ccccc1)c1c(O)[nH]c(=S)[nH]c1=O | - | P3HR-1 | PCR | 20.12 µM
O=c1cc(N2CCOCC2)oc2c(-c3ccccc3)cccc12 | - | Akata | PCR | 1.835 µM
Nc1nc(F)nc2c1ncn2/C=C1\CC1CO | - | H-1 | hybridisation | >20 µM
Nc1nc2c(ncn2[C@@H]2O[C@H](CO)[C@H]2CO)c(=O)[nH]1 | - | P3HR-1 | hybridisation | 0.16 µg/mL
Cc1cn([C@@H]2C[C@@H](O)[C@H](CO)O2)c(=O)[nH]c1=O | - | DAUDI | - | >50 µM
COc1nc(N)nc2c1ncn2C=C1CC1CO | - | H-1 | hybridisation | 1.6 µM
Cn1c2ccccc2c2c3c(c4c5ccccc5n(CCC#N)c4c21)CNC3=O | - | Akata | - | 0.11 µM
Nc1ccn(C[C@@H](CO)OCP(=O)(O)O)c(=O)n1 | - | P3HR-1 | hybridisation | 0.1 µg/mL
COC[C@H]1OC(=O)c2coc3c2[C@@]1(C)C1=C(C3=O)C2CCC(=O)[C@@]2(C)C[C@H]1OC(C)=O | - | Akata | PCR | 0.367 µM
O=c1[nH]c(=O)n([C@H]2C[C@H](O)[C@@H](CO)O2)cc1/C=C/Br | - | P3HR-1 | hybridisation | ≥50 µg/mL
Nc1nc2c(ncn2COCCO)c(=O)[nH]1 | - | DAUDI | antigen | 5.3 µM
Nc1nc2c(ncn2[C@H]2C[C@@]23C[C@@H]3CO)c(=O)[nH]1 | - | DAUDI | plaque count | 6 µM
C[C@H](Cn1cnc2nc(N)nc(N(C)C)c21)OCP(=O)(O)O | - | P3HR-1 | hybridisation | 4 µg/mL
Nc1ncnc2c1c(I)cn2[C@@H]1O[C@H](CO)[C@@H](O)[C@H]1O | - | Akata | PCR | 0.89 µM
C[C@H](Cn1cnc2ncnc(N(C)C)c21)OCP(=O)(O)O | - | P3HR-1 | hybridisation | 0.8 µg/mL
Cc1cccc2c1OP(=O)(OC[C@H]1O[C@@H](n3cc(/C=C/Br)c(=O)[nH]c3=O)C[C@@H]1OC(=O)[C@H](C)N)OC2 | - | - | hybridisation | 24.7 µg/mL
Cc1ccc(S(=O)(=O)Oc2nn([C@H]3O[C@H](CO)[C@@H](O)[C@H](O)[C@H]3Cl)nc2C(F)(F)F)cc1 | B95-8 lymphoblastoid | - | PCR | 21 µM
Nc1nc(N)c2ncn(C[C@@H](CF)OCP(=O)(O)O)c2n1 | - | P3HR-1 | hybridisation | 50 µg/mL
CCOC(C)n1nc(OS(=O)(=O)c2ccc(C)cc2)c(C(F)(F)F)n1 | B95-8 lymphoblastoid | - | PCR | 11 µM
COC(=O)/C=C/c1cc(O)ccc1O | - | Akata | PCR | 2.373 µM
Nc1nc2c(ncn2COC(CO)CO)c(=O)[nH]1 | - | P3HR-1 | hybridisation | 0.4 µg/mL
COC(=O)[C@H](C)NP(=O)(OC[C@H]1C/C1=C/n1cnc2c(N)nc(N)nc21)Oc1ccccc1 | - | H-1 | hybridisation | 5.5 µM
Nc1ncnc2c1ncn2[C@@H]1C[C@@H](O)[C@H](CO)O1 | - | DAUDI | - | 5.7 µM
Nc1ncnc2c1ncn2[C@H]1C[C@]12C[C@@H]2CO | - | DAUDI | plaque count | 4.8 µM
Cc1ccc(S(=O)(=O)Oc2nn(C3=CCCO3)nc2C(F)(F)C(F)(F)C(F)(F)F)cc1 | B95-8 lymphoblastoid | - | PCR | 7 µM
Nc1ccn([C@@H]2C[C@@H](O)[C@H](CO)O2)c(=O)n1 | - | DAUDI | - | >50 µM
O=c1[nH]c(=O)n([C@H]2C[C@H](O)[C@@H](COP3(=O)OCc4cc(-c5ccccc5)ccc4O3)O2)cc1/C=C/Br | - | - | hybridisation | 24.1 µg/mL
O=P(O)(O)COCCn1cnc2c(NC3CC3)ncnc21 | - | P3HR-1 | hybridisation | 9 µg/mL
Cc1cccc2c1OP(=O)(OC[C@H]1O[C@@H](n3cc(/C=C/Br)c(=O)[nH]c3=O)C[C@@H]1OC(=O)CN)OC2 | - | - | hybridisation | 29.8 µg/mL
COC(=O)[C@H](C)NP(=O)(OC[C@H]1C/C1=C\n1cnc2c(=O)[nH]c(N)nc21)Oc1ccccc1 | - | H-1 | hybridisation | 8 µM
CC(C)Nc1nc2cc(Cl)c(Cl)cc2n1[C@H]1O[C@@H](CO)[C@H](O)[C@@H]1O | - | Akata | - | 0.63 µM
Nc1ncnc2c1ncn2[C@@H]1C[C@@H](O)[C@H](CO)O1 | - | DAUDI | - | 5.7 µM
Nc1[nH]c(=O)nc2c1ncn2/C=C1/C[C@H]1CO | - | H-1 | hybridisation | >20 µM

The last 5 rows once more:

SMILES,strain,cells,read by,value
Cc1cccc2c1OP(=O)(OC[C@H]1O[C@@H](n3cc(/C=C/Br)c(=O)[nH]c3=O)C[C@@H]1OC(=O)CN)OC2,-,-,hybridisation,29.8 µg/mL
COC(=O)[C@H](C)NP(=O)(OC[C@H]1C/C1=C\n1cnc2c(=O)[nH]c(N)nc21)Oc1ccccc1,-,H-1,hybridisation,8 µM
CC(C)Nc1nc2cc(Cl)c(Cl)cc2n1[C@H]1O[C@@H](CO)[C@H](O)[C@@H]1O,-,Akata,-,0.63 µM
Nc1ncnc2c1ncn2[C@@H]1C[C@@H](O)[C@H](CO)O1,-,DAUDI,-,5.7 µM
Nc1[nH]c(=O)nc2c1ncn2/C=C1/C[C@H]1CO,-,H-1,hybridisation,>20 µM